Protein sequences, listed by entry. Tags and fused reporters are not part of them.
UniProt Q72874, entry or part of it Q7K: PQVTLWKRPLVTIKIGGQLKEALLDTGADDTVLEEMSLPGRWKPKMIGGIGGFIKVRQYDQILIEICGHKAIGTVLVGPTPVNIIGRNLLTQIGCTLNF

According to ChEMBL document CHEMBL1828574, “Synthesis and structural studies of pentacycloundecane-based HIV-1 PR inhibitors: a hybrid 2D NMR and docking/QM/MM/MD approach” (Eur J Med Chem, 2011):

Molecular target: Human immunodeficiency virus type 1 protease (Human immunodeficiency virus 1, UniProt Q72874, Q7K)
Assay: Inhibition of HIV1 subtype C protease Q7K mutant expressed in Escherichia coli BL21 (DE3) pLysS using Lys-Ala-Arg-Val-Nle-p-nitro-Phe-Glu-Ala-Nle-NH2 as substrate by spectrophotometry

Cc1cccc(C)c1OCC(=O)N[C@@H](Cc1ccccc1)[C@@H](O)C[C@H](Cc1ccccc1)NC(=O)[C@H](C(C)C)N1CCCNC1=O [LOPINAVIR]
IC50: 25 nM
